Human monoclonal antibodies against the spike receptor-binding domain (heavy:light variable regions). IC50 against pseudoviruses bearing the spike of naturally observed variants; lower = stronger; >10 µg/ml means not reached at the top dose. No active / inactive call. The stated detection limit is 0.0005 µg/ml; values near or below 0.001 µg/ml lie at the floor of the assay.
B1: BD-849 (protein)
chain 1: QVQLQESGPGLVKPSETLSLTCTVSGGSISSYYWTWVRQSPGKGLEWIGYISYTGSTNYNPSLKGRVTMSIDTSENQVSLRLSSVTAADTAVYYCASDFWSDYAGVYYYYGMDVWGQGTTVTVSS
chain 2: DIQMTQSPSSVSASVGDRVTITCRASQDIAGWLAWYQQKPGKAPKLLVYAATTLQSGVPARFSGSGSGTDFTLTISSLQPEDFATYYCQQANSFPRTFGQGTKVDFK
B2: BD-864 (protein)
chain 1: QVQLVESGGGVVQPGRSLRLSCVASGFPFSKYTMHWVRQAPGKGLEWVTVISKPGGDEYYADSVKGRFSISRDNSKNMLDLQMNSLRPEDTAIYYCVREGRIAALGTAQSLWEPHDAFDVWGPGTMVTVSS
chain 2: QSALTQPRSVSGSPGQSVTISCTGTNSDIGNYNYISWYQQRPGKAPKLMIYDVSERPSGVPDRFSGSKSGNTASLTISGLQAEDESDYYCCSYAGTSLVWVFGGGTKLTVL
B3: BD-900 (protein)
chain 1: QVQLVQPGAEVKKPGSSVKVSCKASGGTFSNYAIAWVRQAPGQGLEWMGRIIPMFGTTSPAQNFKDRLTIGADTSTNTAYMELRSLRFEDTAIYYCARDVVGATNIDFWGQGTLVTVSS
chain 2: DVVMTQSPLSLPVTLGQPASISCRSNHSLVYSDGNTYLNWFQQRPGQSPRRLIYKVSNRDSGVPDRFSGSGSVTDFTLKISRVETEDLAIYFCMQGTHWPRTFGQGTRVEVK
B4: BD-904 (protein)
chain 1: QVQLVESGGGVVQPGTSLRLSCVASRFTFSNYGMHWVRQAPGKGLEWVAVIWYDGNNYDYADSVKGRFTISRDNSKNTLYLQMNSLRAEDTAVYYCAKEAAATISLMGPYGMDVWGQGTTVTVSS
chain 2: QSALTQPRSVSGSPGQSVTISCTGTSSDIGAYKSVSWYQQHPGKAPKLMIYDVTKRPSGVPDRFSGSRSGNTASLTISGLQTEDEADYYCCSYAGSYTYLFATGTKVTVL
B5: BD55-587 (protein)
chain 1: QITLKESGPTLVKPTQTLTLTCTFSGFSLNTSGVGVGWIRQPPGKALEWLALIYWDDDKRYSPSLKSRLTITKDTSKNQVVLTMTNMDPVDTATYYCARTYGSPPLIAAAEYWFDPWGQGTLVTVSS
chain 2: SYELTQPPSVSVSPGQTARITCSGDALPKQYAYWYQQKPGQAPVLVIYKDSERPSGIPERFSGSSSGTTVTLTISGVQAEDEADYYCQSGDSSGVVFGGGTKLTVL
B6: BD55-616 (protein)
chain 1: QVQLVQSGAEVKKPGASVKVSCKASGYSFTSYYIHWVRQAPGQGLEWMGTINPSGGSKNYAQKFQGRVTMTRDTSTTTVYMELSSLRSEDTAVYYCARGHSDILTGYYIFGGYFDYWGQGTLVTVSS
chain 2: EIVMTQSPATLSVSPGERATLSCRASQSVSSNLAWYQQKPGQAPRLLIYGASTRATGIPARFSGSGSDTEFTLTISSLQSEDFAVYYCQQYNNWPPGYTFGQGTKLEIK
B7: BD-619 (protein)
chain 1: EVQLVESGGGLIQPGGSLRLSCAASGITVSSNYMSWVRQAPGKGLEWVSVIYSGGSTFYSDSVKGRFTISRDNSKNTLYLQMNSLRAEDTAVYYCARERGGRFDYWGQGTLVTVSS
chain 2: not shown
B8: BD55-659 (protein)
chain 1: EVQLVESGGGLVKPGGSLRLSCAASGFTFSRYSMNWVRQAPGKGLEWVSSISSSSSYIYYADSVKGRFTISRDNAKNSLYLQMNSLRAEDTAVYYCARVASVDYYDRSGHYTTDYDYGMDVWGQGTTVTVSS
chain 2: QSVLTQPPSVSGAPGQRVTISCTGSSSNIGAGYDVHWYQQLPGTAPKLLIYGNSNRPSGVPDRFSGSKSGTSASLAITGLQAEDEADYYCQSYDSSLSGYVFGTGTKVTVL
B9: BD55-696 (protein)
chain 1: QLQLQESGPGLVKPSETLSLTCTVSGSSISSSSYYWGWIRQPPGKGLEWIGSIYYSGSTYYNPSLKSRVTMSVDTSKNQFSLKLSSVTAADTAVYYCARLIRWSLGGYSDYWGQGTLVTVSS
chain 2: QSALTQPASVSGSPGQSITISCTGTSSDVGSYNLVSWYQQHPGKAPKLMIYEGSKRPSGVSYRFSGSKSGNTASLTISGLQAEDEADYYCCSYAGSSIVVFGGGTKLTVL
B10: BD55-745 (protein)
chain 1: QVQLVQSGAEVKKPGASVKVSCKASGYTFTSYYMHWVRQAPGQGLEWMGVINPGAGSTSYAQKFQGRVTMTRDTSTSTVYMDLNSLRSEDTAVYYCARDQVGVPATDGMDVWGQGTTVTVSS
chain 2: EIVLTQSPATLSLSPGERATLSCRASQSVSSYLAWYQQKPGQAPRLLIYDASNRATGIPARFSGSGSGTDFTLTISSLEPEDFAVYYCQQRSNWQYTFGQGTKLEIK
B11: BD55-746 (protein)
chain 1: QVQLVQSGGGVVQPGRSLILSCAASEFAFSNFDMHWVRQAPGKGLEWVAVISADGSTTFYVDSVRGRFSVSRDNSKSTLSLQMNSLRPEDTAIYYCAKDAKVSYYYDVFDIWGQGTMVTVSS
chain 2: DIQMAQSPSSLSASVGDRVTITCRASQYISTYLSWYQQRPGRPPKLLIYGASTLRSGVPSRFSGSGSGTDFTLTINSLQPEDFATYFCQQSYVTPGVTFGGGTKVEIE
B12: BD55-970 (protein)
chain 1: QVQLLQSGAEMKKPGSSVKISCETSGGAFSDFDINWVRLAPGQGLEWMGRIIPVLNIGNYAQRFEGRVTITADKATSTAYMELRSLESGDTALYYCAALSVGRHNFLGDYYFYQMEVWGQGTRVTVSS
chain 2: IVLTQSPGTLSLSPGERATLSCRASQSVSNRYLAWYQQKPGQAPRLLIYGANNRATGIADRFSGSGSGTDFTLTISRLEPEDFAIYYCQQYGDSPTFGGGTKVEIK
B13: BD55-979 (protein)
chain 1: QVQLVQSGPEVLKPGASVKLSCKLSGYSFTTYYVHWVRQAPGQGLEWMGRVNPGDGRAAYAQGFRGRLTLTADTSTSAAYMELSSLRSGDTAVYYCTRTAVTPPQTFFDYWGQGSLVTVSS
chain 2: SYVVTQPPSVSVAPGKTARITCGGDEIGSKNVHWYQQRPGQAPVLVVYDDTDRPSGIPERFSGSNSGNTATLTISRVEVGDEADYYCQVWDSPSLLFYVFGSGTKVTVL

Key:
Test in all cases: pseudovirus neutralization IC50; higher = weaker neutralization
[1] = molecular target: SARS-CoV-2 Omicron BA.1 spike pseudovirus
Experimental: (§1)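 Single-round VSV luciferase pseudovirus mixed with antibody dilutions for 1 h and put on Huh-7 cells for about a day; IC50 from the dose curve.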

[2] = molecular target: SARS-CoV-2 Omicron BA.2 spike pseudovirus
Experimental: as §1

[3] = molecular target: SARS-CoV-2 Omicron BA.2.75 spike pseudovirus
Experimental: as §1

[4] = molecular target: SARS-CoV-2 Omicron BA.5 spike pseudovirus
Experimental: as §1

[5] = molecular target: SARS-CoV-2 Omicron BQ.1.1 spike pseudovirus
Experimental: as §1

[6] = molecular target: SARS-CoV-2 Omicron XBB spike pseudovirus
Experimental: as §1

[7] = molecular target: SARS-CoV-2 early D614G spike pseudovirus
Experimental: as §1

| Binder | pseudovirus neutralization IC50 [1] [µg/mL] | pseudovirus neutralization IC50 [2] [µg/mL] | pseudovirus neutralization IC50 [3] [µg/mL] | pseudovirus neutralization IC50 [4] [µg/mL] | pseudovirus neutralization IC50 [5] [µg/mL] | pseudovirus neutralization IC50 [6] [µg/mL] | pseudovirus neutralization IC50 [7] [µg/mL] |
| --- | --- | --- | --- | --- | --- | --- | --- |
| B1 | > 10 | > 10 | > 10 | > 10 | > 10 | > 10 | > 10 |
| B2 | 0.784 | 0.00312 | 0.111 | 0.0857 | > 10 | > 10 | 0.016 |
| B3 | > 10 | > 10 | > 10 | > 10 | > 10 | > 10 | 0.009 |
| B4 | 0.19 | 0.348 | 0.214 | 0.411 | > 10 | > 10 | 0.002 |
| B5 | > 10 | > 10 | > 10 | > 10 | > 10 | > 10 | > 10 |
| B6 | 0.00812 | 0.00979 | 0.00584 | > 10 | > 10 | 0.747 | 0.00686 |
| B7 | > 10 | > 10 | > 10 | > 10 | > 10 | > 10 | 0.12 |
| B8 | 0.589 | > 10 | > 10 | > 10 | > 10 | > 10 | 0.0731 |
| B9 | > 10 | > 10 | > 10 | > 10 | > 10 | > 10 | > 10 |
| B10 | > 10 | > 10 | > 10 | > 10 | > 10 | > 10 | > 10 |
| B11 | 2.39 | 1.1 | 1.82 | 0.993 | 2.01 | 3.33 | 0.808 |
| B12 | > 10 | > 10 | > 10 | > 10 | > 10 | > 10 | > 10 |
| B13 | > 10 | > 10 | > 10 | > 10 | > 10 | > 10 | > 10 |
